26 molecules from US7964624B1, “Inhibitors of serine proteases” (priority 2005, dated 2011) can be followed below.

The chains behind the UniProt entries cited, without tags or fusion partners. Where a name states a change or a piece, a line headed by the entry shows the natural chain unless it says otherwise. A line that says so, or that is headed by a name, gives the form on record, which may keep a tag or linker. Residues count along the entry.
UniProt P27958, 1658-1711 partner limits assumed: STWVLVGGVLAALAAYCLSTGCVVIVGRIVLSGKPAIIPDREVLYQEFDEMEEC
UniProt P27958, 1027-1711 with tags or gaps with the stated changes: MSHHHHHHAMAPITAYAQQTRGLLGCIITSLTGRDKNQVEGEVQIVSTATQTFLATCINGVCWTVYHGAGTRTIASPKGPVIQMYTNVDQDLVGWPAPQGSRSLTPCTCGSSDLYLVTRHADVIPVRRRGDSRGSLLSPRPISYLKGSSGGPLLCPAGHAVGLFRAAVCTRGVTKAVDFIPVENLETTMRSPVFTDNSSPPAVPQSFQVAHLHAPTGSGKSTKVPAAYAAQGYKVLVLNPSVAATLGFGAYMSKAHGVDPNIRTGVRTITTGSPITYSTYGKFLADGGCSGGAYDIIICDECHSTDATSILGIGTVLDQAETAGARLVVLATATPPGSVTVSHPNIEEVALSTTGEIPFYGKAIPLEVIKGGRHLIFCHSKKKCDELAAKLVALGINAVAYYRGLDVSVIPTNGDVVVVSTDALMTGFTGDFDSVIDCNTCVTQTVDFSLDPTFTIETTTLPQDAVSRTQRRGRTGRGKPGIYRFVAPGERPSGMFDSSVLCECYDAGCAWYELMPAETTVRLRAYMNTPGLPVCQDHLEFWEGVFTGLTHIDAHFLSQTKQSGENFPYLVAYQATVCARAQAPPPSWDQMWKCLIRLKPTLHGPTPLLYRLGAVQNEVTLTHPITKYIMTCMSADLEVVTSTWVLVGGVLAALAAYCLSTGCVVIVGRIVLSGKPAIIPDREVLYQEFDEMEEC
UniProt Q9WMX2, 1027-1207 limits assumed: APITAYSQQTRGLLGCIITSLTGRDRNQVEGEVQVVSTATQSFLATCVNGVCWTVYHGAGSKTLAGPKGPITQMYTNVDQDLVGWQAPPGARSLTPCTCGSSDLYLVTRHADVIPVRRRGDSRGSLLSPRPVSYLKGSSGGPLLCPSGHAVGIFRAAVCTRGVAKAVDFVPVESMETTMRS

Assay [1] concerns the target full-length hepatitis C viral protein NS3•4A (Hepatitis C virus genotype 1a, UniProt P27958). The assay is described as follows: HCV NS3 Peptide Cleavage Assay (Enzyme Assay 2), apparent Ki.
The target of assay [2] is HCV NS3 protease domain (Hepatitis C virus genotype 1b, UniProt Q9WMX2). The assay is described as follows: HCV NS3 Protease Domain Peptide Cleavage Assay (Enzyme Assay 1), apparent Ki. To be noted: read-out: Enzyme Assay 1 (HCV NS3 Protease Domain Peptide Cleavage Assay) activity; apparent Ki class. The text has this: A DNA fragment encoding residues Ala^1-Ser^181 of the HCV NS3 protease (GenBank CAB46913) was obtained by PCR from the HCV Con1 replicon plasmid, I377neo/NS3-3′/wt (re-named as pBR322-HCV-Neo in this study) [V. Lohmann et al., Science, 285, pp. 110-113 (1999)] and inserted into pBEV11 (S. Chamber, et al., personal communication) for expression of the HCV proteins with a C-terminal hexa-histidine tag in E. coli. All constructs were confirmed by sequencing.
The expression constructs for the HCV NS3 serine protease domain was transformed into BL21/DE3 pLysS E. coli cells (Stratagene). Freshly transformed cells were grown at 37° C. in a BHI medium (Difco Laboratories) pplemented with 100 μg/mL carbenicillin and 35 μg/mL chloramphenicol to an optical density of 0.75 at 600 nm. Induction with 1 mM IPTG was performed for four hours at 24° C. The cell paste was harvested by centrifugation and flash frozen at −80° C. prior to protein purification. All purification steps were performed at 4° C. Next, 100 g of cell paste was lysed in 1.5 L of buffer A (50 mM HEPES (pH 8.0), 300 mM NaCl, 0.1% n-octyl-β-D-glucopyranoside, 5 mM β-mercaptoethanol, 10% (v/v) glycerol) and stirred for 30 minutes. The lysate was homogenized using a Microfluidizer (Microfluidics, Newton, Mass.), followed by ultra-centrifugation at 54,000×g for 45 minutes. Imidazole was added to the supernatant to a final concentration of 5 mM along with 2 mL of Ni-NTA resin pre-equilibrated with buffer A containing 5 mM imidazole. The mixture was rocked for three hours and washed with 20 column volumes of buffer A plus 5 mM imidazole. The HCV NS3 protein was eluted in buffer A containing 300 mM imidazole. The eluate was concentrated and loaded onto a Hi-Load 16/60 Superdex 200 column, pre-equilibrated with buffer A. The appropriate fractions of the purified HCV protein were pooled and stored at −80° C.
This assay is a modification of that described by Landro, et al. (Landro J A, Raybuck S A, Luong Y C, O'Malley E T, Harbeson S L, Morgenstern K A, Rao G and Livingston D L. Biochemistry 1997, 36, 9340-9348), and uses a peptide substrate (NS5AB), based on the NS5A/NS5B cleavage site for genotype 1a HCV. The substrate stock solution (25 mM) was prepared in DMSO containing 0.2 M DTT and stored at −20° C. A synthetic peptide cofactor (KK4A) was used as a substitute for the central core region of NS4A. The reaction was performed in a 96-well microtiter plate format using 25 ηM to 50 ηM HCV NS3 protease domain in buffer containing 50 mM HEPES pH 7.8, 100 mM NaCl, 20% glycerol, 5 mM DTT and 25 μM KK4A. The final DMSO concentration was no greater than 2% v/v. Reactions were quenched by addition of trifluoroacetic acid (TFA) to yield a final concentration of 2.5%.
The SMSY product was separated from substrate and KK4A using a microbore separation method. The instrument used was a Agilent 1100 with a G1322A degasser, either a G1312A binary pump or a G1311A quaternary pump, a G1313A autosampler, a G1316A column thermostated chamber and a G1315A diode array detector. The column was a Phenomenex Jupiter, 5 μm C18, 300 Å, 150×2 mm, P/O 00F-4053-B0, with a flow-rate of 0.2 mL/min. […] The SMSY product peak was quantitated using the data collected at […].
To evaluate apparent Ki values, all components except the test compound and substrate were pre-incubated for 5-10 minutes at room temperature. […] At the end of the reaction the mixture was quenched, and the extent of reaction was determined as described above. […]

Where [3] appears, read: read-out: Enzyme Assay 2 (HCV NS3 Peptide Cleavage Assay) activity, apparent Ki class.
[4] abbreviates: read-out: Enzyme Assay 2, HCV NS3 Peptide Cleavage Assay, apparent Ki.

Where two headings read alike, the source gives them in different places.

On to `CCC[C@H](NC(=O)[C@@H]1C[C@]2(CC(c3cccc(Cl)c3)=NO2)CN1C(=O)[C@@H](NC(=O)[C@@H](Cc1c[nH]nn1)C1CCCCC1)C(C)(C)C)C(=O)C(=O)NC1CC1`, for which the Ki in assay [1] (setting [3]) was below 100 nM; in assay [2], 100 to 500 nM. Take `CC1CC(CC(=O)NC(C(=O)N2CC3(CC(c4cccc(Cl)c4)=NO3)CC2C(=O)NC(CC2CC2)C(=O)C(N)=O)C(C)(C)C)CC(C)O1` (centres unmarked): the Ki was below 100 nM in assay [1] (setting [3]) and 100 to 500 nM in assay [2]. Turning to `CCC[C@H](NC(=O)[C@@H]1C[C@]2(CC(c3cccc(Cl)c3)=NO2)CN1C(=O)[C@@H](NC(=O)OCc1c(F)cccc1F)C(C)(C)C)C(=O)C(=O)NC1CC1`, in assay [2], the Ki lay within 100 to 500 nM. Take `CCC[C@H](NC(=O)[C@@H]1C[C@]2(CC(c3ccc4ccccc4c3)=NO2)CN1C(=O)OCC1c2ccccc2-c2ccccc21)C(=O)C(=O)NC1CC1`: in assay [2], the Ki is above 500 nM. Take `CCC[C@H](NC(=O)[C@@H]1C[C@]2(CC(c3cccc(Cl)c3)=NO2)CN1C(=O)[C@@H](NC(=O)CC1CCCCC1)C(C)(C)C)C(=O)C(=O)N[C@H](C)c1cccc(OC)c1`: the Ki in assay [1] (setting [3]) and in assay [2] was above 500 nM each time. In the case of `CCC[C@H](NC(=O)[C@@H]1C[C@]2(CC(c3cc(C)c(OC)c(C)c3)=NO2)CN1C(=O)[C@@H](NC(=O)CC(C)(C)C)C(C)(C)C)C(=O)C(=O)NC`, the Ki in assay [1] (setting [3]) was 100 to 500 nM. Consider `CCC[C@H](NC(=O)[C@@H]1C[C@]2(CC(c3cc(C)c(OC)c(C)c3)=NO2)CN1C(=O)[C@@H](NC(=O)[C@@H]1C[C@H]1c1ccccc1)C(C)(C)C)C(=O)C(=O)NC`, for which the Ki in assay [1] (setting [4]) is below 100 nM. The same measure, in the same setting: in the case of `CNC(=O)C(=O)[C@H](CC1CC1)NC(=O)[C@@H]1C[C@]2(CC(c3cc(Cl)ccc3OC)=NO2)CN1C(=O)[C@@H](NC(=O)[C@@H]1C[C@H]1c1ccccc1)C(C)(C)C` it was below 100 nM. As to `CNC(=O)C(=O)[C@H](CC1CC1)NC(=O)[C@@H]1C[C@]2(CC(c3cccc(Cl)c3)=NO2)CN1C(=O)[C@@H](NC(=O)O[C@H]1C[C@@H]1c1ccccc1)C(C)(C)C`, the Ki in assay [1] (setting [3]) fell in the range of 100 to 500 nM.

As to `CNC(=O)C(=O)[C@H](CC1CC1)NC(=O)[C@@H]1C[C@]2(CC(c3cc(C)c(OC)c(C)c3)=NO2)CN1C(=O)[C@@H](NC(=O)OC(C)(C)C)C(C)(C)C`, the Ki in assay [1] (setting [3]) is below 100 nM. Regarding `CNC(=O)C(=O)[C@H](CC1CC1)NC(=O)[C@@H]1C[C@]2(CC(c3cccc(Cl)c3)=NO2)CN1C(=O)[C@@H](NC(=O)[C@H]1C[C@@H]1c1ccccn1)C(C)(C)C`, the Ki in assay [1] (setting [4]) fell in the range of 100 to 500 nM. Still for that read-out and setting: in the case of `CCC[C@H](NC(=O)C1C[C@]2(CC(c3cccc(Cl)c3)=NO2)CN1C(=O)[C@@H](NC(=O)C1C2CCCCC21)C(C)(C)C)C(=O)C(=O)NC1CC1` (some centres unmarked) it was below 100 nM. As for `CCC[C@H](NC(=O)[C@@H]1C[C@]2(CC(c3cc(C)c(OC)c(C)c3)=NO2)CN1C(=O)[C@@H](NC(=O)OC1CCCC1)C(C)(C)OC)C(=O)C(=O)NC1CC1`, the Ki in assay [1] (setting [3]) was below 100 nM. For `CNC(=O)C(=O)[C@H](CC1CC1)NC(=O)[C@@H]1C[C@]2(CC(c3cc(C)c(OC)c(Cl)c3)=NO2)CN1C(=O)[C@@H](NC(=O)[C@H]1C[C@@H]1c1ccccc1)C(C)(C)C`, in assay [1] (setting [3]), the Ki is below 100 nM. `CCC[C@H](NC(=O)[C@@H]1C[C@]2(CC(c3cc(C)c(OC)c(C)c3)=NO2)CN1C(=O)[C@@H](NC(=O)[C@@H]1C[C@H]1C(C)C)C(C)(C)C)C(=O)C(=O)NC1CC1`: the Ki in assay [1] (setting [4]) was below 100 nM. As for `CCC[C@H](NC(=O)[C@@H]1C[C@]2(CC(c3cccc(Cl)c3)=NO2)CN1C(=O)[C@@H](NC(=O)C1C(C)(C)C1(C)C)C(C)(C)C)C(=O)C(=O)NC1CC1`, the Ki in assay [1] (setting [4]) is below 100 nM. For `COc1c(C)cc(C2=NO[C@]3(C2)C[C@@H](C(=O)N[C@H](CC2CC2)C(=O)C(=O)NC2CC2)N(C(=O)[C@@H](NC(=O)OC2CCCC2)C(C)(C)C)C3)cc1C`, the Ki in assay [1] (setting [3]) was 100 to 500 nM.

With `CCC[C@H](NC(=O)[C@@H]1C[C@]2(CC(c3cc(Cl)c(OC)cc3OC)=NO2)CN1C(=O)[C@@H](NC(=O)[C@@H]1C[C@H]1c1ccccc1)C(C)(C)C)C(=O)C(=O)NC`, the Ki in assay [1] (setting [4]) is below 100 nM.

Turning to `CCC[C@H](NC(=O)[C@@H]1C[C@]2(CC(c3cccc(N)c3)=NO2)CN1C(=O)[C@@H](NC(=O)CC1CCCCC1)C(C)(C)C)C(=O)C(=O)NC1CC1`, the Ki in assay [1] (setting [3]) is 100 to 500 nM. As for `CCC[C@H](NC(=O)[C@@H]1C[C@]2(CC(c3cc(C)c(OC)c(C)c3)=NO2)CN1C(=O)[C@@H](NC(=O)CC1CCC(O)CC1)C(C)(C)C)C(=O)C(=O)NC1CC1` (some centres unmarked), the Ki in assay [1] (setting [4]) was below 100 nM. Turning to `CCC[C@H](NC(=O)[C@@H]1C[C@]2(CC(c3cccc(Cl)c3)=NO2)CN1C(=O)[C@@H](NC(=O)[C@@H]1C[C@H]1C1CCCCC1)C(C)(C)C)C(=O)C(=O)NC1CC1`, the Ki in assay [1] (setting [4]) is below 100 nM.

Turning to `CCC[C@H](NC(=O)[C@@H]1C[C@]2(CC(c3cccc(Cl)c3)=NO2)CN1C(=O)[C@@H](NC(=O)[C@@H]1C[C@H]1CC(C)C)C(C)(C)C)C(=O)C(=O)NC1CC1`, in assay [1] (setting [4]), the Ki is below 100 nM. Take `CCC[C@H](NC(=O)[C@@H]1C[C@]2(CC(c3cc(C)c(OC)c(C)c3)=NO2)CN1C(=O)[C@@H](NC(=O)CC(C)(C)C)C(C)(C)C)C(=O)C(=O)NC1CC1`: in assay [1] (setting [3]), the Ki was below 100 nM. `CCC[C@H](NC(=O)[C@@H]1C[C@]2(CC(c3cccc(Cl)c3)=NO2)CN1C(=O)[C@@H](NC(=O)[C@@H]1[C@@H](C=C(C)C)C1(C)C)C(C)(C)C)C(=O)C(=O)NC1CC1`: the Ki in assay [1] (setting [4]) lay within 100 to 500 nM.

With `CCC[C@H](NC(=O)[C@@H]1C[C@]2(CC(N(C)C)=NO2)CN1C(=O)[C@@H](NC(=O)OC1CCCC1)C(C)(C)C)C(=O)C(=O)NC1CC1`, the Ki in assay [1] (setting [4]) was above 500 nM. For the molecule `CCC[C@H](NC(=O)[C@@H]1C[C@]2(CC(c3cc(C)c(OC)cc3OC)=NO2)CN1C(=O)[C@@H](NC(=O)OC1CCCC1)C(C)(C)C)C(=O)C(=O)NC1CC1`, the Ki in assay [1] (setting [4]) was below 100 nM.
